# Share of PSTVd loop 6 variants by leaf site

The measurements come from Wu et al. 2024 (doi:10.1371/journal.ppat.1012142).

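A pool of all variants was put on leaves of three Nicotiana benthamiana plants. Samples came from the inoculated region at 5 days, the leaf margin at 10 and upper systemic leaves at 12.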

Region: loop 6 of PSTVd (intermediate strain), upper and lower strand joined, each 5' to 3', the first 5 letters being the upper strand, closing pairs included. Wild type: UGACCGCGAG. Varied positions (N): UNNNCGNNNG.

Numbers give reads per thousand; 0 = not seen among the reads, higher = more abundant.
Each site shows the three plants.
"Pool" is the share in the plasmid pool used as inoculum, on the same scale.
The inoculated region was read from the minus strand, the other sites from the plus strand.
The authors trace changes outside the varied positions to PCR and sequencing errors or to mutation in the plant; presence does not show that a variant is infectious alone.

sequence,pool,inoculated region,leaf margin,systemic leaves
UAAUCGAUUG,0.379,0.156 / 0.0719 / 0.0738,0 / 0 / 0.0232,0 / 0 / 0
UAAUCGCAAG,0.248,0.817 / 0.790 / 0.775,0 / 0.101 / 0.116,0 / 0 / 0
UAAUCGCACG,0.196,0.139 / 0.144 / 0.0922,0.0276 / 0 / 0,0 / 0 / 0
UAAUCGCAGG,0.261,0.174 / 0.0719 / 0.129,0.0276 / 0 / 0,0 / 0 / 0
UAAUCGCAUG,0.248,0.139 / 0.0719 / 0.0369,0 / 0 / 0,0 / 0 / 0.0205
UAAUCGCCAG,0.261,0.0869 / 0.0719 / 0.0184,0 / 0 / 0,0 / 0 / 0
UAAUCGCCCG,0.261,0.0869 / 0.0539 / 0.0184,0 / 0 / 0.0232,0 / 0 / 0
UAAUCGCCGG,0.301,0.104 / 0.0539 / 0.0553,0 / 0 / 0.0464,0 / 0 / 0
UAAUCGCCUG,0.301,0.122 / 0.0539 / 0.0369,0.0276 / 0.0252 / 0.0232,0 / 0 / 0
UAAUCGCGAG,0.261,0.156 / 0.126 / 0.240,0.166 / 0.706 / 0.0232,0 / 0 / 0.103
UAAUCGCGCG,0.261,0.0695 / 0.108 / 0,0.0552 / 0 / 0,0 / 0 / 0
UAAUCGCGGG,0.353,0.156 / 0.144 / 0.0922,0.0276 / 0 / 0,0 / 0 / 0.0205
UAAUCGCGUG,0.196,0.139 / 0.108 / 0.184,0.0276 / 0.0252 / 0,0 / 0 / 0
UAAUCGCUAG,0.131,0.0521 / 0.108 / 0.0553,0 / 0 / 0,0 / 0 / 0
UAAUCGCUCG,0.288,0.0695 / 0.0898 / 0,0.0276 / 0 / 0,0 / 0 / 0
UAAUCGCUGG,0.222,0.139 / 0.126 / 0.0369,0 / 0 / 0.0232,0 / 0 / 0
UAAUCGCUUG,0.144,0.156 / 0.0719 / 0.0922,0 / 0 / 0.0232,0 / 0 / 0
UAAUCGGAAG,0.183,0.660 / 0.629 / 0.627,0.0828 / 0.126 / 0.162,0 / 0 / 0
UAAUCGGACG,0.183,0.539 / 0.790 / 0.627,0.110 / 0.0504 / 0.0464,0.0359 / 0.0808 / 0.0205
UAAUCGGAGA,0.0131,0 / 0 / 0,0 / 0 / 0,0 / 0 / 0
UAAUCGGAGG,0.261,0.104 / 0.0719 / 0.0738,0 / 0 / 0.0232,0 / 0 / 0
UAAUCGGAUG,0.235,0.104 / 0.0898 / 0.0184,0.0276 / 0 / 0.0232,0 / 0 / 0
UAAUCGGCAG,0.301,0.730 / 0.503 / 0.590,0.166 / 0.101 / 0.0464,0 / 0 / 0
UAAUCGGCCG,0.183,0.678 / 0.665 / 0.609,0.0828 / 0.0757 / 0.0696,0 / 0 / 0
UAAUCGGCGG,0.261,0.0869 / 0.0898 / 0.0738,0.0276 / 0 / 0,0 / 0 / 0
UAAUCGGCUG,0.209,0.695 / 0.826 / 0.443,0.110 / 0.0504 / 0.0464,0 / 0 / 0
UAAUCGGGAG,0.144,0.904 / 0.862 / 0.553,0.110 / 0.101 / 0.0928,0 / 0 / 0
UAAUCGGGCG,0.196,0.747 / 0.790 / 0.498,0.193 / 0.101 / 0.0696,0 / 0.0606 / 0.0205
UAAUCGGGGG,0.105,0.0869 / 0.126 / 0.129,0 / 0 / 0.0232,0 / 0 / 0
UAAUCGGGUG,0.275,0.591 / 0.844 / 0.387,0.0552 / 0.101 / 0.0928,0 / 0 / 0
UAAUCGGUAG,0.392,0.122 / 0.0359 / 0.166,0 / 0 / 0,0 / 0 / 0
UAAUCGGUCG,0.575,0.643 / 0.593 / 0.461,0.0828 / 0.101 / 0.0928,0 / 0 / 0
UAAUCGGUGG,0.327,0.0695 / 0.126 / 0.0738,0.0276 / 0.0504 / 0.0232,0 / 0 / 0
UAAUCGGUUG,0.248,0.122 / 0.0539 / 0.0553,0 / 0 / 0,0 / 0 / 0
UAAUCGUAAG,0.196,0.174 / 0.0719 / 0.0184,0.0276 / 0 / 0,0 / 0 / 0

A selection of 4 entries from above:

* UAAUCGCCCG (pool 0.261): inoculated region 0.0869 / 0.0539 / 0.0184; leaf margin 0 / 0 / 0.0232; systemic leaves 0 / 0 / 0
* UAAUCGGACG (pool 0.183): inoculated region 0.539 / 0.790 / 0.627; leaf margin 0.110 / 0.0504 / 0.0464; systemic leaves 0.0359 / 0.0808 / 0.0205
* UAAUCGCAUG (pool 0.248): inoculated region 0.139 / 0.0719 / 0.0369; leaf margin 0 / 0 / 0; systemic leaves 0 / 0 / 0.0205
* UAAUCGGGAG (pool 0.144): inoculated region 0.904 / 0.862 / 0.553; leaf margin 0.110 / 0.101 / 0.0928; systemic leaves 0 / 0 / 0

Wild type was 20.7 per thousand in the pool and the most common sequence in every sample (inoculated region 195, 198, 203; leaf margin 629, 591, 734; systemic leaves 942, 870, 868).
With 36,220-57,551 reads a sample, very low values are single reads.